Anti-infective test results gathered from many reports (values: NIAID ChemDB through PubChem).

All rows: enzyme or target tests

Neighbouring rows are from separate reports. Two numbers with a dash give a range or band. Percent inhibition refers to the dose given; in toxicity tests it is the harm to the cells. Fold resistance: result on the changed form divided by that on wild type. ICn is the concentration giving n% inhibition. Blank or dashed fields: not listed here.

SMILES	protein	species	strain	dose	endpoint	method	mutations	result
O=C(O)[C@H](Cc1ccccc1)N(Cc1ccc(-c2cc3ccccc3o2)o1)C(=O)c1ccc(Cl)cc1Cl	RNA-dependent RNA polymerase	Hepatitis C virus			IC50			<5 µM
C=C[C@H]1CC1(NC(=O)[C@@H]1C[C@@H](Oc2cc(-c3ccccc3)nc3cc(OC)ccc23)CN1C(=O)[C@@H](NC(=O)N[C@@H](C)C(N)=O)C(C)(C)C)C(=O)O	HCV NS3/NS4A protease	Hepatitis C virus			IC50			0.11 µM
O=C1NC(=S)S/C1=C/c1ccc(-c2cccc(Cl)c2)o1	NS5B polymerase	Hepatitis C virus			IC50			≤30 µM
C=C[C@H]1CC1(NC(=O)[C@@H]1C[C@@H](Oc2cc(-c3ccccc3)nc3cc(OC)ccc23)CN1C(=O)[C@@H](NC(=O)CC(C)(C)C)C(C)(C)C)C(=O)O	HCV NS3/NS4A protease	Hepatitis C virus			IC50			0.12 µM
CN1CCNCCC1c1cc(C(=O)Nc2ccc3[nH]ncc3c2)c(F)cc1F	Reverse transcriptase	Hepatitis B virus			IC50			0.1–1 µg/mL
CSCC[C@H](NC(=O)[C@H](CCC(=O)O)NC(=O)[C@@H](CC(=O)O)NC(C)=O)C(=O)N[C@@H](CCC(=O)O)C(=O)N[C@@H](CCC(=O)O)C(=O)N[C@@H](CS)C(=O)O	HCV NS3 protease	Hepatitis C virus			IC50			1 µM
Cc1ccc(/C=C2/SC(=S)N(Cc3ccccc3)C2=O)cc1	NS5B polymerase	Hepatitis C virus			IC50			>30 µM
C[C@@]1(O)[C@H](O)[C@@H](COP(=O)(O)OP(=O)(O)OP(=O)(O)O)O[C@@]1(C#N)c1ccc2c(N)ncnn12	Nonstructural protein 5B	Hepatitis C virus	1b Con1		fold resistance	radiometric	S282T	240
N#Cc1cccc(C(=O)N(Cc2ccc(-c3ccccc3C(F)(F)F)o2)[C@H](Cc2ccccc2)C(=O)O)c1	Nonstructural protein 3 NTPase/helicase	Hepatitis C virus			IC50	HPLC		<5 µM
O=C(Nc1ccc(-c2nc(C(=O)O)c(O)c(=O)[nH]2)cc1)c1cccs1	HCV polymerase	Hepatitis C virus			IC50			<100 µM
Cc1onc(-c2ccccc2Cl)c1C(=O)c1ccc(CN(c2ccc(Cl)cc2Cl)[C@@H](Cc2ccccc2)C(=O)O)cc1	RNA-dependent RNA polymerase	Hepatitis C virus			IC50			<5 µM
CSCC[C@H](NC(=O)[C@H](CCC(=O)O)NC(=O)[C@@H](N)CC(=O)O)C(=O)N[C@@H](CCC(=O)O)C(=O)N[C@@H](CCC(=O)O)C(=O)N[C@H](CO)CS	NS3 protease	Hepatitis C virus			IC50			130 µM
O=c1cc(-c2cc(O)c(O)c(O)c2)oc2cc(O)cc(O)c12	Replicase complex	Hepatitis C virus	J4	20 µM	inhibition	SYBR Green		69.5%
CC1CCC(C(=O)N(c2cc(-c3ccccc3)sc2C(=O)O)C2COC(C)(C)OC2)CC1	NS3 ATPase	Hepatitis C virus			IC50			<5 µM
C[C@@]1(O)[C@H](O)[C@@H](COP(=O)(O)OP(=O)(O)OP(=O)(O)O)O[C@H]1n1ccc2c(N)ncnc21	Nonstructural protein 5B	Hepatitis C virus	GT-1b Con1		IC50	nucleotide incorporation		0.2 µM
O=C(O)c1nc(-c2cc(Cl)ccc2NS(=O)(=O)c2ccc3c(Cl)cccc3c2)[nH]c(=O)c1O	HCV polymerase	Hepatitis C virus			IC50			<100 µM
COc1cccc(/C=C2/SC(=S)N(NS(=O)(=O)c3ccccc3)C2=O)c1	NS5B polymerase	Hepatitis C virus			IC50			≤30 µM
N[C@@H](CCC(=O)O)C(=O)N[C@H](C(=O)N[C@@H](CCC(=O)O)C(=O)N[C@@H](CC1CCCCC1)C(=O)N[C@@H](CS)C(=O)O)C(c1ccccc1)c1ccccc1	NS3 protease	Hepatitis C virus			IC50			1.4 µM
O=C(Cc1cc(F)ccc1F)Nc1ccsc1-c1nc(C(=O)O)c(O)c(=O)[nH]1	HCV polymerase	Hepatitis C virus			IC50			<25 µM
O=C1CC(c2ccc(O)cc2)Oc2cc(O)ccc21	Replicase complex	Hepatitis C virus	J4	20 µM	inhibition	SYBR Green		6.1%
CSCC[C@H](NC(=O)[C@H](CCC(=O)O)NC(=O)[C@H](CC(=O)O)NC(C)=O)C(=O)N[C@@H](CCC(=O)O)C(=O)N[C@@H](CC1CCCCC1)C(=O)N[C@@H](CS)C(=O)O	Full-length NS3	Hepatitis C virus			Ki			1.04 µM
C[C@@]1(O)[C@H](O)[C@@H](COP(=O)(O)OP(=O)(O)OP(=O)(O)O)O[C@H]1c1cnc2c(=O)[nH]c(N)nn12	Nonstructural protein 5B	Hepatitis C virus	GT-1b Con1		IC50	nucleotide incorporation		0.31 µM
CC[C@H](C)[C@H](NC(=O)[C@@H](NC(=O)[C@H](CCC(=O)O)NC(C)=O)C(c1ccccc1)c1ccccc1)C(=O)N[C@@H](CC1CCCCC1)C(=O)N[C@@H](CS)C(=O)O	Full-length NS3	Hepatitis C virus			IC50			1.67 µM
CN1CCN(c2cc(C(=O)Nc3ccc4cn[nH]c4c3)c(F)cc2F)CC1	Nonstructural protein 5B	Hepatitis C virus		0.1 µg/mL	inhibition			0%
O=C(O)c1sc(-c2ccccc2)cc1NS(=O)(=O)c1ccccc1	NS3 ATPase	Hepatitis C virus			IC50			5–20 µM
N[C@@H](CC(=O)O)C(=O)N[C@@H](CCC(=O)O)C(=O)N[C@H](C(=O)N[C@@H](CC(=O)O)C(=O)N[C@@H](CC1CCCCC1)C(=O)C(N)(CCC(F)F)C(=O)C(=O)O)C(c1ccccc1)c1ccccc1	NS3 serine protease	Hepatitis C virus			IC50			0.001 µM
O=C1/C(=C\c2ccc(SC(F)(F)F)cc2)SC(=S)N1NS(=O)(=O)c1ccccc1	NS5B polymerase	Hepatitis C virus			IC50			≤30 µM
Cc1c(CC(=O)Nc2ccsc2-c2nc(C(=O)O)c(O)c(=O)[nH]2)sc2ccccc12	HCV polymerase	Hepatitis C virus			IC50			<25 µM
CC(C(=O)N[C@H](C(=O)N1C[C@H](OCc2cccc3ccccc23)C[C@H]1C(=O)NC1(C(=O)O)CC1)C1CCCCC1)C1CCCCC1	HCV NS3/NS4A protease	Hepatitis C virus			IC50			45 µM
CC1=NCCN1c1cc(C(=O)Nc2ccc3[nH]ncc3c2)c(F)cc1F	Reverse transcriptase	Hepatitis B virus		1 µg/mL	inhibition			79%
Cc1coc(/C=C2/SC(=S)NC2=O)c1C	NS5B polymerase	Hepatitis C virus			IC50			≤30 µM
O=C(O)c1sc(-c2ccccc2)cc1N(CC1CCNCC1)C(=O)c1ccccc1Cl	NS3 ATPase	Hepatitis C virus			IC50			<5 µM
O=C(Nc1ccc2[nH]ncc2c1)c1cc(C2CCNCCN2)c(F)cc1F	Nonstructural protein 5B	Hepatitis C virus		1 µg/mL	inhibition			21%
O=C(O)c1sc(-c2ccccc2)cc1NS(=O)(=O)c1ccc(C(F)(F)F)cc1	NS3 ATPase	Hepatitis C virus			IC50			<5 µM
CC(C)C[C@H](NC(=O)[C@@H](CCC(=O)O)NC(=O)[C@@H](N)CC(=O)O)C(=O)N[C@@H](CCC(=O)O)C(=O)N[C@@H](CC1CCCCC1)C(=O)N[C@@H](CS)C(=O)O	Full-length NS3	Hepatitis C virus			IC50			2.57 µM
C=C[C@H]1CC1(NC(=O)[C@@H]1C[C@@H](Oc2cc(-c3ccccc3)nc3cc(OC)ccc23)CN1C(=O)[C@@H](NC(=O)c1cc[nH]c1)C(C)(C)C)C(=O)O	HCV NS3/NS4A protease	Hepatitis C virus			IC50			0.3 µM
O=C(O)c1sc(-c2ccccc2)cc1NS(=O)(=O)c1cccs1	NS3 ATPase	Hepatitis C virus			IC50			<5 µM
O=c1cc(-c2ccc(O)c(O)c2)oc2c(O)c(O)ccc12	Replicase complex	Hepatitis C virus	J4	20 µM	inhibition	SYBR Green		30.9%
O=C(Cc1ccc2ccccc2c1)Nc1ccsc1-c1nc(C(=O)O)c(O)c(=O)[nH]1	HCV polymerase	Hepatitis C virus			IC50			<25 µM
O=c1cc(-c2ccccc2)oc2c(O)c(O)ccc12	Replicase complex	Hepatitis C virus	J4	20 µM	inhibition	SYBR Green		30.8%
C=C/C=C(Cl)\C=C/CC[C@H](NC(=O)[C@H](CCC(=O)O)NC(=O)[C@@H](N)CC(=O)O)C(=O)N[C@@H](CCC(=O)O)C(=O)N[C@@H](CC1CCCCC1)C(=O)N[C@@H](CS)C(=O)O	NS3 protease	Hepatitis C virus			IC50			0.3 µM
CSCC[C@H](NC(=O)[C@H](CCC(=O)O)NC(=O)[C@H](CC(=O)O)NC(C)=O)C(=O)N[C@@H](CCC(=O)O)C(=O)N[C@@H](Cc1ccc2ccccc2c1)C(=O)N[C@@H](CS)C(=O)O	Full-length NS3	Hepatitis C virus			IC50			0.7348 µM
COC(=O)c1ccc(-c2ccc(CN([C@@H](Cc3ccccc3)C(=O)O)S(=O)(=O)c3c(C)cc(OC)c(C)c3C)cc2)s1	RNA-dependent RNA polymerase	Hepatitis C virus			IC50			>20 µM
CC(C)COC(=O)Nc1ccsc1-c1nc(C(=O)O)c(O)c(=O)[nH]1	HCV polymerase	Hepatitis C virus			IC50			<25 µM
Cc1ccc(S(=O)(=O)Nc2cc(-c3ccc(Cl)cc3)sc2C(N)=O)cc1	NS3 ATPase	Hepatitis C virus			IC50			5–20 µM
CC[C@H](C)[C@H](NC(=O)[C@H](CC(C)C)NC(=O)[C@@H](CC(C(=O)O)C(=O)O)NC(=O)[C@H](CC(=O)O)NC(C)=O)C(=O)N[C@@H](CC1CCCCC1)C(=O)N[C@@H](CS)C(=O)O	NS3 serine protease	Hepatitis C virus			IC50			0.0015 µM
C[C@H](c1ccccc1)N(C(=O)c1ccc(Cl)cc1Cl)c1cc(-c2ccccc2)sc1C(=O)O	NS3 ATPase	Hepatitis C virus			IC50			<5 µM
C=CC(=O)NCC(=O)N1C[C@H](Oc2nccc3ccc(Br)cc23)C[C@H]1C(=O)N[C@]1(C(=O)NS(=O)(=O)C2CC2)C[C@H]1C=C	Nonstructural protein 3/4A	Hepatitis C virus	1b A156S		IC50	FRET		0.0096 µM
CN1CCN(c2cc(C(=O)Nc3ccc4[nH]ncc4c3)c(F)cc2F)CC1	Nonstructural protein 5B	Hepatitis C virus		1 µg/mL	inhibition			20%
Cc1ccccc1S(=O)(=O)Nc1cc(-c2ccccc2C#N)sc1C(=O)O	NS3 ATPase	Hepatitis C virus			IC50			5–20 µM
C=C[C@H]1CC1(NC(=O)[C@@H]1C[C@@H](Oc2cc(-c3csc(NC(C)=O)n3)nc3cc(OC)ccc23)CN1C(=O)[C@@H](Nc1ccc(C(=O)N[C@H](C)C(C)(C)C)cc1)C(C)(C)C)C(=O)O	HCV NS3/NS4A protease	Hepatitis C virus			IC50			0.003 µM
O=C(Nc1ccc2cn[nH]c2c1)c1cc(C2CCNCCN2)c(F)cc1F	Reverse transcriptase	Hepatitis B virus			IC50			0.1–1 µg/mL
C=C/C=C\C=C/CC(NC(=O)[C@H](CCC(=O)O)NC(=O)[C@@H](N)CC(=O)O)C(=O)N[C@@H](CCC(=O)O)C(=O)N[C@@H](CC1CCCCC1)C(=O)N[C@@H](CS)C(=O)O	NS3 protease	Hepatitis C virus			IC50			0.12 µM
C=CCC(N)(C=O)C(=O)[C@H](CC(C)C)NC(=O)C(NC(=O)[C@H](Cc1cccc(C)c1)NC(=O)[C@H](CCC(=O)O)NC(=O)[C@H](CC(=O)O)NC(=O)CCC(=O)O)C(C)(C)C	NS3 serine protease	Hepatitis C virus			IC50			0.09 µM
O=C(NCc1ccccc1Cl)Nc1cccc(-c2nc(C(=O)O)c(O)c(=O)[nH]2)c1	HCV polymerase	Hepatitis C virus			IC50			<100 µM
C[C@@H]([C@H](O)c1ccccc1)N(C(=O)c1ccc(Cl)cc1Cl)c1cc(-c2ccccc2)sc1C(=O)O.C[Si](C)C(C)(C)C	NS3 ATPase	Hepatitis C virus			IC50			5–20 µM
C=C[C@H]1CC1(NC(=O)[C@@H]1C[C@@H](Oc2cccc3ncccc23)CN1C(=O)[C@@H](NC(=O)OC(C)(C)C)C1CCCCC1)C(=O)O	HCV NS3/NS4A protease	Hepatitis C virus			IC50			8.5 µM
CC[C@H](C)[C@H](NC(=O)[C@@H](NC(=O)[C@H](CCC(=O)O)NC(=O)[C@@H](N)CC(=O)O)C(c1ccccc1)c1ccccc1)C(=O)N[C@@H](CC1CCCCC1)C(=O)N[C@@H](CS)C(=O)O	NS3 protease	Hepatitis C virus			IC50			0.06 µM
O=C(NCc1ccccc1Cl)Nc1cscc1-c1nc(C(=O)O)c(O)c(=O)[nH]1	HCV polymerase	Hepatitis C virus			IC50			<25 µM
C[C@@]1(O)[C@H](O)[C@@H](COP(=O)(O)OP(=O)(O)OP(=O)(O)O)O[C@H]1c1ccc2c(N)ncnn12	Nonstructural protein 5B	Hepatitis C virus	GT3a		IC50	nucleotide incorporation		0.5 µM
CSc1ccc(NC(=O)Nc2cccc(-c3nc(C(=O)O)c(O)c(=O)[nH]3)c2)cc1	HCV polymerase	Hepatitis C virus			IC50			<100 µM
O=C(Nc1ccc2cn[nH]c2c1)c1cc(N2CCN(CCO)CC2)c(F)cc1F	Reverse transcriptase	Hepatitis B virus		1 µg/mL	inhibition			76%